# Library screen at single concentrations

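Phenotypic screen: M. tuberculosis growth, cholesterol and DPPC medium, 4 days; the read-out is not stated. Tested at 500 µM. The record gives no direction; compounds that gave an IC50 in retests scored well above the rest, so higher reads as more growth inhibition. About 18,000 compounds were tested under these conditions; 5% (about 900) showed 50% or more at least once.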

Results are given as percent effect.
The record does not define 0% and 100%; most values in the screen are far below 50% and negative numbers occur (in some assays of this library far below -100).
Many other results are left out here, so strong results are more common than in the screen.

SMILES	percent effect
Cc1ccnc(N2CCNCC2)c1	33.61
CN(C)C(=O)c1occc1Br	-5.043
CCCC(=O)N1C[C@@H](CO)[C@H](N(C)C)C1	-12.25
CC(C)c1ccc(S(=O)(=O)C(C)C(N)=O)cc1 (stereo unspecified)	67.71
CN(Cc1cccc(C(N)=O)c1)C(=O)c1occc1Br	14.02
CCCn1nnc(NC(=O)COc2ccc(Cl)cc2)n1	110.9
Cn1ncc2c(N)ncnc21	-0.8071
COCCCNC(=O)NC(=O)c1ccccc1	10.97
COc1ccc2c(c1)CCCC(=O)N2	6.077
O=C1C=CC(=O)N1c1cccc(F)c1	7.659
COc1ccnc(C(=O)N(C)Cc2cnccn2)c1	7.225
CNCC1(O)CCOCC1	22.87
COc1ccc(C(=O)NC2=NCCS2)c(O)c1	87.26
COCCCNC(=O)C1=Cc2ccccc2OC1	81
CCOC(=O)c1cnn(C)c1	0.02516
CNc1cc(CN(C)Cc2ccco2)ccn1	18.66
CN(C)c1ccnc(C(=O)NCC(=O)c2ccco2)c1	27.65
NS(=O)(=O)NCC1CCCN(CCc2cccs2)C1 (stereo unspecified)	17.78
Cc1nc2ccccc2c(C)c1C(N)=O	5.465
CC(=O)NCc1cn2ccsc2n1	3.22
CNC(=O)CNc1ncc(C(F)(F)F)cc1Cl	8.343
NCC(O)c1ccc(-c2ccccc2)cc1 (stereo unspecified)	71.37
CCC(C)c1cc(C(=O)NC(C)(CO)CO)on1 (stereo unspecified)	-13.08
NCC(O)c1ccc(Cl)c(Cl)c1 (stereo unspecified)	55.78
CNC(=O)NC(=O)CCCN(C)Cc1ccsc1	-11.01
CC(C)C[C@H](N)C(=O)N(C)c1ccccc1	28.77
Cc1noc(C)c1CC(=O)NCC1CCOC1 (stereo unspecified)	1.972
CCCc1nc(C)n[nH]1	-10.41
CC(=O)Nc1ccc2c(c1)C(=O)N(C(C)C)C2=O	-10.71
O=C(NCCN1CCCC1)c1csc(-c2ccco2)n1	39.45
CC(C)(O)Cn1nnc(-c2cccs2)n1	64.6
O=C(CSc1cnn[nH]1)Nc1ccc(F)cc1F	4.122
O=C(NC1CCCCC1)C1CCCNC1 (stereo unspecified)	11.04
CN1CCCCC1CC(=O)NCCc1ccc(O)cc1 (stereo unspecified)	-1.286
CC(C)Nc1ccc(F)cc1OCCO	-5.43
CC(C)CN1CCN(C(=O)CN2CCOCC2)CC1	-0.682
COC(=O)N1CCC(NC(=O)CCc2ccsc2)C1 (stereo unspecified)	41.68
Cn1cc(C2CCCN2)cn1 (stereo unspecified)	3.947
CC1CCN(S(=O)(=O)N2CCN(S(C)(=O)=O)CC2)CC1	25.09
CCOc1ccc(C(C)=O)cc1N1C(=O)C=CC1=O	12.44
CCCC(=O)Nc1ccc(N2CCN(C)CC2)cc1	-6.179
Cc1cccc(C)c1-n1nnnc1SCC(N)=O	-3.326
NCCCc1nc(-c2ccccn2)cs1	17.35
CCC1CN(CCN2CCCC2=O)CCN1CCOC (stereo unspecified)	-7.064
COc1cc(N2CCNCC2)cc(OC)c1OC	12.07
NCc1ccc2c(c1)OCCCO2	23.4
CCOC(=O)CSc1n[nH]c(-c2cccnc2)n1	17.02
CCCc1cc(C(N)=O)c(NC(=O)c2ccnn2C)s1	22.62
NC1CCN(C(=O)c2ccncc2)C1 (stereo unspecified)	-25.59
COc1ccc2c(c1)CCN2C(=O)C(C)(C)C#N	80.64
O=C(NCC1CCCO1)Nc1cn[nH]c1 (stereo unspecified)	-6.602

Data taken from ChEMBL document CHEMBL3988442, “University of Dundee, Small-Polar-MMV Screening Library” (2021).